PubChem BioAssay AID1224833 – University of Georgia | 2016
In all, the deposit lists about 12,000 reagents; this is a part drawn at random. Of all reagents, about 5,600 (46%) got an active call. 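Active calls cover z-scores past 1 in both directions, so they include lowered as well as raised rotavirus replication.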

- Aim: 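Human genes whose knock-down alters rotavirus replication in monkey cells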 (primary screen)
- System: monkey MA104 kidney cells
- Reagent: siRNA pool against human genes, 50 nM
- Timing: 48 h knock-down before infection; read 24 h after infection
- Conditions: infection with rotavirus strain RV3 two days after transfection; infectious dose for this stage not given
- Measured: 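z-score of rotavirus antigen signal per well, from a fluorescent immunoassay, relative to non-targeting control wells on the same plate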
- Direction: z-score vs non-targeting control: higher = more rotavirus replication than with non-targeting control
- Rule for the call: In these data the active calls have z-score vs non-targeting control at about -1 or lower, or at about 1 or higher
- Calls: active = z-score beyond 1 either way; inactive = z-score within 1 of zero

Target gene | z-score vs non-targeting control | Call
R3HCC1L | -1.73 | active
B3GALT6 | -2.14 | active
OR52W1 | 0.926 | inactive
HLA-DQA2 | 0.185 | inactive
MIS18A | 0.855 | inactive
FOXP1 | -1.39 | active
STBD1 | -0.707 | inactive
ARIH1 | 2.95 | active
PRMT6 | -0.868 | inactive
ENTPD3 | -1.91 | active
LCE2B | 0.974 | inactive
WDR64 | -0.852 | inactive
PODN | 1.75 | active
OR4X1 | -0.45 | inactive
BCL6B | 0.978 | inactive
ADAT2 | -1.26 | active
NASP | -0.428 | inactive
GRB10 | -1.49 | active
HSD17B3 | -1.45 | active
OR2D2 | -0.471 | inactive
SLC25A48 | -1.04 | active
IFITM3 | 0.119 | inactive
EDNRB | 0.688 | inactive
SNX10 | 1.05 | active
KCTD8 | -0.0027 | inactive
ZNF43 | -1.21 | active
DPM1 | -2.43 | active
EIF4EBP3 | -0.262 | inactive
UTS2 | -1.08 | active
INSL5 | -1.01 | active
RAD23A | -2.04 | active
ISG15 | -2.87 | active
CLDN8 | 1.08 | active
GRM2 | -2.13 | active
NFAT5 | -1.09 | active
CUX1 | -1.12 | active
OR5M9 | 0.436 | inactive
GPHA2 | -1.11 | active
CCNQ | 1.45 | active
DSCAML1 | 0.858 | inactive
POLD3 | -1.46 | active
TVP23B | -0.599 | inactive
IL36RN | 0.912 | inactive
CEP44 | 0.345 | inactive
ABHD6 | -1.97 | active
RBM6 | -0.265 | inactive
MPRIP | -1.67 | active
CRCP | -0.884 | inactive
ABITRAM | -2.05 | active
MFSD12 | -0.733 | inactive
TAFAZZIN | -1.99 | active
PRUNE2 | -0.256 | inactive
IRAG1 | 0.0293 | inactive
TUBGCP6 | 0.448 | inactive
DOK5 | -0.443 | inactive
ARPIN | 1.14 | active
TMEM11 | 2.36 | active
ITGB7 | 0.716 | inactive
TDRP | 0.504 | inactive
ASZ1 | -0.159 | inactive
NOM1 | 1.28 | active
DIRAS1 | 2.58 | active
FAM50B | -1.02 | active
TUBB1 | 0.587 | inactive
C7 | -1.04 | active
CD22 | -3.14 | active
TIGD6 | -1.02 | active
GRTP1 | -0.0549 | inactive
LSM10 | 0.18 | inactive
SPAG16 | -0.435 | inactive
RUNDC3B | 1.24 | active
CAPN12 | -0.647 | inactive
RAB22A | -2.37 | active
HLCS | 1.47 | active
SNIP1 | -0.359 | inactive
DUSP28 | -1.11 | active
TAGLN2 | -2.5 | active
CHN1 | 1.42 | active
DENND4C | -1.49 | active
RDH16 | 2.74 | active
PPP1R3F | -1.59 | active
JMJD4 | -0.202 | inactive
TMEM214 | 0.466 | inactive
PRORP | 0.151 | inactive
BAGE2 | 0.154 | inactive
CST1 | 0.864 | inactive
SRRD | -0.824 | inactive
LY6K | -0.579 | inactive
PPP1R3B | -1.32 | active
ILDR2 | -1.01 | active
YPEL3 | -0.523 | inactive
HAND1 | 1.95 | active
TEX2 | -0.819 | inactive
PRXL2A | -0.718 | inactive
C9orf85 | -0.635 | inactive
AUP1 | -0.0644 | inactive
MTURN | 0.716 | inactive
RHOT1 | -1.17 | active
LIM2 | 0.231 | inactive
GALNT17 | -0.585 | inactive
NCKAP1 | 0.0045 | inactive
SCP2D1 | -1.54 | active
OSER1 | -0.0395 | inactive
TNF | -1.17 | active
TENT5B | 0.87 | inactive
MIEN1 | -0.714 | inactive
SNRNP200 | -2 | active
CSRP3 | 0.0906 | inactive
RTP3 | -0.345 | inactive
SEMA7A | -0.317 | inactive
FAM47B | -1.73 | active
USP40 | -0.679 | inactive
NXT2 | 2.67 | active
OR6N2 | -1.13 | active
ZNF426 | 0.0205 | inactive
ALMS1 | -0.73 | inactive
GTF2IRD2B | -1.64 | active
PLA2G2E | 1.06 | active
BRD8 | 0.945 | inactive
SF3B5 | -0.21 | inactive
ST14 | -1.02 | active
NUFIP2 | -0.975 | inactive
OR5H1 | -2.14 | active
CACTIN | -2.19 | active
DHODH | -0.62 | inactive
RPL3L | -1.09 | active
ZNF711 | 0.416 | inactive
ANO4 | -0.764 | inactive
OR14J1 | -1.2 | active
DNAJC5 | -0.386 | inactive
ZNF264 | -1.72 | active
HILPDA | -1.29 | active
PER3 | 0.639 | inactive
PMM2 | 0.485 | inactive
STARD4 | -1.72 | active
RPP38 | -2.76 | active
ARHGEF3 | -0.808 | inactive
VSTM2L | -0.65 | inactive
GPATCH8 | 1.66 | active
KIAA0586 | -0.896 | inactive

No new results follow: an excerpt of the list.
Target gene | z-score vs non-targeting control | Call
RTP3 | -0.345 | inactive
SEMA7A | -0.317 | inactive
FAM47B | -1.73 | active
USP40 | -0.679 | inactive
NXT2 | 2.67 | active
OR6N2 | -1.13 | active
ZNF426 | 0.0205 | inactive
ALMS1 | -0.73 | inactive
GTF2IRD2B | -1.64 | active
PLA2G2E | 1.06 | active
BRD8 | 0.945 | inactive
SF3B5 | -0.21 | inactive
ST14 | -1.02 | active
NUFIP2 | -0.975 | inactive
OR5H1 | -2.14 | active
CACTIN | -2.19 | active
DHODH | -0.62 | inactive
RPL3L | -1.09 | active
